Results on one substance are retold here after patent US20050244819.

In the series the test system is beta-Gal^PR, engineered E. coli beta-galactosidase with the HIV p6/PR cleavage site decapeptide inse [β-galactosidase: P00722].

In the case of “wild-type HIV protease (mature HIV-1 NL4.3 protease released by autoprocessing of the precursor TF-PR^WT in E. coli)”, the β-galactosidase activity is 0.041 µmol/min/mg.
